Test results: US9938510B2, “Photobacterium sp. alpha-2-6-sialyltransferase variants” (The Regents of the University of California, priority 2014, dated 2018)

B1: A366G: Photobacterium sp. JH-ISH-224 α2-6-sialyltransferase residues 15-501, A366G point mutation, C-terminal His6; SEQ ID NO: 2 (protein)
chain: CNNSEENTQSIIKNDINKTIIDEEYVNLEPINQSNISFTKHSWVQTCGTQQLLTEQNKESISLSVVAPRLDDDEKYCFDFNGVSNKGEKYITKVTLNVVAPSLEVYVDHASLPTLQQLMDIIKSEEENPTAQRYIAWGRIVPTDEQMKELNITSFALINNHTPADLVQEIVKQAQTKHRLNVKLSSNTAHSFDNLVPILKELNSFNNVTVTNIDLYDDGSAEYVNLYNWRDTLNKTDNLKIGKDYLEDVINGINEDTSNTGTSSVYNWQKLYPANYHFLRKDYLTLEPSLHELRDYIGDSLKQMQWDGFKKFNSKQQELFLSIVNFDKQKLQNEYNSSNLPNFVFTGTTVWGGNHEREYYAKQQINVINNAINESSPHYLGNSYDLFFKGHPGGGIINTLIMQNYPSMVDIPSKISFEVLMMTDMLPDAVAGIASSLYFTIPAEKIKFIVFTSTETITDRETALRSPLVQVMIKLGIVKEENVLFWA
modifications: C-terminal His6; Synthetic Psp26ST(15-501) A366G
B2: W365S: Psp26ST(15-501)-His6 with W365S point mutation; SEQ ID NO: 8 (protein)
chain: CNNSEENTQSIIKNDINKTIIDEEYVNLEPINQSNISFTKHSWVQTCGTQQLLTEQNKESISLSVVAPRLDDDEKYCFDFNGVSNKGEKYITKVTLNVVAPSLEVYVDHASLPTLQQLMDIIKSEEENPTAQRYIAWGRIVPTDEQMKELNITSFALINNHTPADLVQEIVKQAQTKHRLNVKLSSNTAHSFDNLVPILKELNSFNNVTVTNIDLYDDGSAEYVNLYNWRDTLNKTDNLKIGKDYLEDVINGINEDTSNTGTSSVYNWQKLYPANYHFLRKDYLTLEPSLHELRDYIGDSLKQMQWDGFKKFNSKQQELFLSIVNFDKQKLQNEYNSSNLPNFVFTGTTVSAGNHEREYYAKQQINVINNAINESSPHYLGNSYDLFFKGHPGGGIINTLIMQNYPSMVDIPSKISFEVLMMTDMLPDAVAGIASSLYFTIPAEKIKFIVFTSTETITDRETALRSPLVQVMIKLGIVKEENVLFWA
modifications: C-terminal His6; Synthetic Psp26ST(15-501) W365S
B3: W365G: Psp26ST(15-501)-His6 with W365G point mutation; SEQ ID NO: 4 (protein)
chain: CNNSEENTQSIIKNDINKTIIDEEYVNLEPINQSNISFTKHSWVQTCGTQQLLTEQNKESISLSVVAPRLDDDEKYCFDFNGVSNKGEKYITKVTLNVVAPSLEVYVDHASLPTLQQLMDIIKSEEENPTAQRYIAWGRIVPTDEQMKELNITSFALINNHTPADLVQEIVKQAQTKHRLNVKLSSNTAHSFDNLVPILKELNSFNNVTVTNIDLYDDGSAEYVNLYNWRDTLNKTDNLKIGKDYLEDVINGINEDTSNTGTSSVYNWQKLYPANYHFLRKDYLTLEPSLHELRDYIGDSLKQMQWDGFKKFNSKQQELFLSIVNFDKQKLQNEYNSSNLPNFVFTGTTVGAGNHEREYYAKQQINVINNAINESSPHYLGNSYDLFFKGHPGGGIINTLIMQNYPSMVDIPSKISFEVLMMTDMLPDAVAGIASSLYFTIPAEKIKFIVFTSTETITDRETALRSPLVQVMIKLGIVKEENVLFWA
modifications: C-terminal His6; Synthetic Psp26ST(15-501) W365G
B4: W365A: Psp26ST(15-501)-His6 with W365A point mutation; SEQ ID NO: 6 (protein)
chain: CNNSEENTQSIIKNDINKTIIDEEYVNLEPINQSNISFTKHSWVQTCGTQQLLTEQNKESISLSVVAPRLDDDEKYCFDFNGVSNKGEKYITKVTLNVVAPSLEVYVDHASLPTLQQLMDIIKSEEENPTAQRYIAWGRIVPTDEQMKELNITSFALINNHTPADLVQEIVKQAQTKHRLNVKLSSNTAHSFDNLVPILKELNSFNNVTVTNIDLYDDGSAEYVNLYNWRDTLNKTDNLKIGKDYLEDVINGINEDTSNTGTSSVYNWQKLYPANYHFLRKDYLTLEPSLHELRDYIGDSLKQMQWDGFKKFNSKQQELFLSIVNFDKQKLQNEYNSSNLPNFVFTGTTVAAGNHEREYYAKQQINVINNAINESSPHYLGNSYDLFFKGHPGGGIINTLIMQNYPSMVDIPSKISFEVLMMTDMLPDAVAGIASSLYFTIPAEKIKFIVFTSTETITDRETALRSPLVQVMIKLGIVKEENVLFWA
modifications: C-terminal His6; Synthetic Psp26ST(15-501) W365A
B5: R153G: Psp26ST(15-501)-His6 with R153G point mutation; SEQ ID NO: 10 (protein)
chain: CNNSEENTQSIIKNDINKTIIDEEYVNLEPINQSNISFTKHSWVQTCGTQQLLTEQNKESISLSVVAPRLDDDEKYCFDFNGVSNKGEKYITKVTLNVVAPSLEVYVDHASLPTLQQLMDIIKSEEENPTAQRYIAWGGIVPTDEQMKELNITSFALINNHTPADLVQEIVKQAQTKHRLNVKLSSNTAHSFDNLVPILKELNSFNNVTVTNIDLYDDGSAEYVNLYNWRDTLNKTDNLKIGKDYLEDVINGINEDTSNTGTSSVYNWQKLYPANYHFLRKDYLTLEPSLHELRDYIGDSLKQMQWDGFKKFNSKQQELFLSIVNFDKQKLQNEYNSSNLPNFVFTGTTVWAGNHEREYYAKQQINVINNAINESSPHYLGNSYDLFFKGHPGGGIINTLIMQNYPSMVDIPSKISFEVLMMTDMLPDAVAGIASSLYFTIPAEKIKFIVFTSTETITDRETALRSPLVQVMIKLGIVKEENVLFWA
modifications: C-terminal His6; Synthetic Psp26ST(15-501) R153G

Experiment: Expression and Ni2+-NTA purification of soluble recombinant protein; SDS-PAGE of lysates
Set-up: species or system Escherichia coli
Experimental: The plasmids containing mutant genes were transformed into Escherichia coli BL21 (DE3). The Escherichia coli cells were cultured in LB-rich media (10 g L^−1 tryptone, 5 g L^−1 yeast extract, and 10 g L^−1 NaCl) supplemented with ampicillin (100 μg mL^−1). Overexpression of the mutants was achieved by adding 0.3 mM of isopropyl-1-thio-β-D-galactopyranoside (IPTG) to the Escherichia coli culture when its OD600 nm reached 0.8. The induced culture was incubated at 20° C. for 20 h with vigorous shaking at 250 rpm in a C25KC incubator shaker (New Brunswick Scientific, Edison, N.J.). His6-tagged mutant proteins were purified from the cell lysate. To obtain cell lysate, the cell pellet harvested by centrifugation at 4000 rpm for 2 h was resuspended in 20 mL (for cells obtained from one liter culture) of lysis buffer (pH 8.0, 100 mM Tris-HCl containing 0.1% Triton X-100). Lysozyme (50 μg mL^−1) and DNaseI (3 μg mL^−1) were added to the resuspended cells followed by shaking at 37° C. for 60 min. The lysate was obtained as the supernatant after centrifugation at 11,000 rpm for 20 min. Purification of His6-tagged proteins from the lysate was achieved using 10 mL column packed with Ni^2+-NTA agarose. The column was pre-equilibrated with 8 column volumes of binding buffer (5 mM imidazole, 0.5 M NaCl, 50 mM Tris-HCl pH 7.5). After loading the sample, the column was washed with 8 column volumes of the binding and 8 column volumes of washing buffer (20 mM imidazole, 0.5 M NaCl, 50 mM Tris-HCl pH 7.5). Protein was eluted using 8 column volumes of the elute buffer (200 mM imidazole, 0.5 M NaCl, 50 mM Tris-HCl pH 7.5). The fractions containing the purified enzyme were collected and stored at 4° C. Protein concentrations were quantified by bicinchoninic acid (BCA) protein assay kit according to manufacturer's instruction using bovine serum albumin (BSA) as the protein standard. The wild-type enzyme and A366G mutant were expressed, purified, and quantified in duplicates or triplets for at least three times.
SDS-PAGE was performed in a 12% Tris-glycine gel using Bio-Rad Mini-protein III cell gel electrophoresis unit (Bio-Rad, Hercules, Calif.) at DC=150V. Bio-Rad Precision Plus Protein Standards (10-250 kD) were used as molecular weight standards. Gels were stained with Coomassie Blue. Cell lysates from the wild-type enzyme and the mutants were prepared exactly the same and the same volume (˜30 mL) of the lysate was obtained for each construct. The same volume of the lysate was used to prepare samples for SDS-PAGE and the same volume (10 μL) was loaded to the gel.

Q: Which “expression level of soluble recombinant protein in cell lysates compared to wild-type (SDS-PAGE, FIG. 4)” value does the source give for B1 here?
A: significantly improved expression level

Q: And the “increase of expression level over wild-type” value?
A: over a six-fold increase

Q: Which “expression level of soluble recombinant protein in cell lysates compared to wild-type (SDS-PAGE, FIG. 4)” value does the source give for B2 here?
A: significantly improved expression level

Q: For B3, which “expression level of soluble recombinant protein in cell lysates compared to wild-type (SDS-PAGE, FIG. 4)” value is on record?
A: significantly improved expression level

Q: Which “expression level of soluble recombinant protein in cell lysates compared to wild-type (SDS-PAGE, FIG. 4)” value does the source give for B4 here?
A: significantly improved expression level

Q: With B5 as the molecule, how does the “expression level of soluble recombinant protein in cell lysates compared to wild-type (SDS-PAGE, FIG. 4)” value read?
A: significantly improved expression level

Some compounds share one wording; it may come from a single statement.
